Anti-infective test results gathered from many reports (values: NIAID ChemDB through PubChem).

All rows: growth or infection tests; species: HIV-2; method: cytopathic effect; read-out: EC50

ECn is the concentration giving n% inhibition of infection, replication or growth. An empty or dashed field is not shown. Conditions beyond the fields shown may differ between rows.

| SMILES | cell line | strain | value |
|---|---|---|---|
| O=c1[nH]c(=O)n([C@H]2C[C@H](F)[C@@H](CO)O2)cc1Br | MT-4 | LAV-2 | 0.54 µM |
| CC(C)(C)[Si](C)(C)OCC1OC(n2nncc2C(=O)N2CCC2)C(O[Si](C)(C)C(C)(C)C)C12OS(=O)(=O)C=C2N | MT-4 | ROD | >50 µM |
| Cc1cn([C@H]2C[C@H](N=[N+]=[N-])[C@@H](CO)O2)c(=O)[nH]c1=O | MT-4 | LAV-2 | 0.004 µM |
| O=C(O)c1cc(Cc2ccc(O)c(C(=O)O)c2)ccc1O | MT-4 |  | >200 µM |
| CCN1c2cc(C)c(C)cc2N(C)S(=O)(=O)c2cccnc21 | C8166 | ROD | >150 µM |
| Cc1cn([C@H]2C[C@H](F)[C@@H](CO)O2)c(=O)[nH]c1=O | MT-4 | LAV-2 | 0.015 µM |
| Nc1nc2c(ncn2CC(OCCF)OCP(=O)(O)O)c(=O)[nH]1 | CEM |  | 7.67 µg/mL |
| Cc1cccc(N2C(=O)CSC2c2cccnc2)n1 | MT-4 | ROD | 84 µM |
| COc1nc(=O)[nH]c2c1C(c1ccc(Cl)cc1)c1c(OC)nc(=O)[nH]c1O2 | MT-4 | ROD | >347 µM |
| Nc1ncnc2c1ncn2CCOCP(=O)(O)O | MT-4 | ROD | 14 µM |
| Fc1cccc(F)c1[C@H]1SCc2nc3ccccc3n21 | MT-4 | ROD | >38.1 µM |
| O=c1[nH]c(=S)[nH]c2c1C(c1ccc(Cl)cc1)c1c([nH]c(=S)[nH]c1=O)O2 | MT-4 | EHO | >137 µM |
| O=C1CSC(c2c(Cl)cccc2Cl)N1C1CCCCC1 | MT-4 | ROD | 1.54 µM |
| Fc1cccc(F)c1C1SCc2nc3ccccc3n21 | MT-4 | ROD | >49 µM |
| Fc1cccc(F)c1C1SCc2nc3ccccc3n21 | MT-4 | ROD | >48.6 µM |
| O=c1[nH]c2c(c(=O)[nH]1)C(c1ccc(I)cc1)c1c([nH]c(=O)[nH]c1=O)O2 | MT-4 | EHO | >276 µM |
| CC(C)NC(=O)c1cnnn1C1OC(CO[Si](C)(C)C(C)(C)C)C2(OS(=O)(=O)C=C2N)C1O[Si](C)(C)C(C)(C)C | MT-4 | ROD | >250 µM |
| Cc1cn([C@H]2C[C@H](N=[N+]=[N-])[C@@H](CO)O2)c(=O)[nH]c1=O | MT-4 | ZY | 0.04 µM |
| CC(C)(C)[Si](C)(C)OCC1OC(n2nncc2C(=O)NC2CCC2)C(O[Si](C)(C)C(C)(C)C)C12OS(=O)(=O)C=C2N | CEM | ROD | >250 µM |
| COc1nc(=O)[nH]c2c1C(c1ccc([N+](=O)[O-])cc1)c1c(OC)nc(=O)[nH]c1O2 | MT-4 | EHO | >313 µM |
| O=C(O)C1=CC(=C(c2ccc(O)c(C(=O)O)c2)c2ccc(O)c(C(=O)O)c2)C=CC1=O | MT-4 |  | 23 µM |
| Fc1ccc(Cl)c(C2OCc3nc4ccccc4n32)c1 | MT-4 | ROD | >62 µM |
| O=C1CSC(c2c(F)cccc2Cl)N1c1cccc(C(F)(F)F)c1 | MT-4 | ROD | 10.6 µM |
| CCN1c2ncccc2N(C)C(=S)c2oc3cccnc3c21 | C8166 | ROD | >60 µM |
| Nc1nc(=O)n([C@@H]2CS[C@H](CO)O2)cc1F | CEM | ZY | 0.1 µM |
| CCCCCCCCCCCCCCCCCCCCCCC(=O)O[C@@H]1[C@@H](C)[C@@]2(O)[C@@H](C=C(COC(C)=O)C[C@]3(O)C(=O)C(C)=C[C@@H]23)[C@@H]2C(C)(C)[C@]12O | C8166 | CBL-20 | 0.255 µM |
| CC(C)(C)[Si](C)(C)OCC1OC(n2nncc2C(=O)NC2CC2)C(O[Si](C)(C)C(C)(C)C)C12OS(=O)(=O)C=C2N | CEM | ROD | >50 µM |
| CC1SC(c2c(F)cccc2F)N(Cc2ccco2)C1=O | MT-4 | ROD | 30 µM |
| Cc1cn([C@@H]2O[C@H](CO[Si](C)(C)C(C)(C)C)C3(OS(=O)(=O)C=C3N)[C@H]2O[Si](C)(C)C(C)(C)C)c(=O)n(C)c1=O | MT-4 | ROD | >250 µM |

Repeating the final 2 entries:

{"SMILES": "CC1SC(c2c(F)cccc2F)N(Cc2ccco2)C1=O", "cell line": "MT-4", "strain": "ROD", "value": "30 µM"}
{"SMILES": "Cc1cn([C@@H]2O[C@H](CO[Si](C)(C)C(C)(C)C)C3(OS(=O)(=O)C=C3N)[C@H]2O[Si](C)(C)C(C)(C)C)c(=O)n(C)c1=O", "cell line": "MT-4", "strain": "ROD", "value": ">250 µM"}